In US20170130229:
For at least one entry, the source does not settle the construct or the ends of the probe. Results from cells or extracts need not show a direct contact.

Sequences of proteins named here, by UniProt entry; tags and fusion partners are left off.
UniProt P03496, whole entry: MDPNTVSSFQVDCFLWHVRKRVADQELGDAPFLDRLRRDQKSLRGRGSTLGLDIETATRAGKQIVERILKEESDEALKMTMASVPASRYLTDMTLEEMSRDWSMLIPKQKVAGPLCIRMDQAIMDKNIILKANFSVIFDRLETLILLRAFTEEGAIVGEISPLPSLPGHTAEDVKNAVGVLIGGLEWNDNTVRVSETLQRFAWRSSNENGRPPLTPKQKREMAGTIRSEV

Biological target: NS1 (Strep rPR8) (Influenza A virus A/Puerto Rico/8/34 (H1N1)) (UniProt P03496)
Assay: pull-down
Settings: protein in cells

## GUCAGCAGUGCCUUAGCAGCACGUAAAUAUUGGCGUUAAGAUUCUAAAAUUAUCUCCAGUAUUAACUGUGCUGCUGAAGUAAGGUUGAC [pre-miR-16]
  binding result: binds
